Compound potency records, mixed from different reports. Data source: NIAID ChemDB in PubChem.

Shared fields: cytotoxicity tests; cell line: HeLa; measure: CC50

Neighbouring rows are from separate reports. CCn is the concentration with n% toxicity to the cells.

compound,value
COC(=O)C(Cc1ccc(OCCCCCCC(=O)c2ccc(C)s2)cc1)NC(C)=O,83 µM
Nc1nc(N)nc(OC[C@H]2CC[C@@H](COCc3ccccc3)O2)n1,>250 µM
COC1=C(OC)/C(=C/Cn2cnc3c(N)ncnc32)OC1=O,42.35 µM
CCOC(=O)c1ccc(OCCOc2ccc(-c3onc(SC)c3C#N)cc2)cc1,10 µM
COc1ccc(CNc2ccc(S(C)(=O)=O)cn2)cc1OC,>10 µg/mL
O=C(NC1CC1)c1cc2c(s1)-c1ccccc1N(C(=O)c1ccc(NC(=O)c3ccccc3-c3ccccc3)cc1)CC2,82.3 µM
COc1cc(OC[C@H]2CC[C@@H](CO)O2)ncn1,≥250 µM
COC1=C(OCc2ccc([N+](=O)[O-])cc2)C(=O)O/C1=C\Cn1cnc2c(Cl)ncnc21,20.18 µM
O=c1c(Cc2ccc(Cl)cc2)coc2cc(Cl)cc(Cl)c12,25 µM
Nc1ncnc2c1ncn2[C@H]1C[C@@H](CO)[C@H](O)[C@@H]1O,>400 µg/mL
OC[C@@H]1CC[C@H](COc2ncnc3nc[nH]c23)O1,>250 µM
Nc1ncnc2c1ncn2[C@@H]1C[C@H](CO)[C@@H](O)[C@H]1O,4 µg/mL
C=CCSc1n[nH]c(-c2cccc(C(F)(F)F)c2)n1,13.78 µg/mL
CC(C)Nc1ncnc2c1ncn2C1C[C@H](CO)[C@@H](CO)C1,>200 µg/mL
NC(=O)CSc1ncnc2c1cnn2COCC(O)CO,>400 µg/mL
CC[n+]1c(-c2ccccc2)c2cc(N)ccc2c2ccc(N)cc21,<10 µM
CCSc1n[nH]c(-c2cccc(C(F)(F)F)c2)n1,7.07 µg/mL
CC1(C)O[C@@H]2[C@H](O1)[C@@H](COS(=O)(=O)NC(=O)OC1O[C@H](CO)[C@@H](O)[C@H](O)[C@H]1O)O[C@H]2n1ccc(=O)[nH]c1=O,>220 µM
Cc1ccc(C(=O)CCCCCCOc2ccc(C3=NC(C)(C)CO3)cc2)s1,16 µM
Nc1cc(OC[C@H]2CC[C@@H](CO)O2)ncn1,>250 µM
O=c1cc(NCc2cccc(CN3CCOCC3)c2)c2cccnc2n1O,0.13 µM
CC(=O)O[C@H]1CC[C@@]2(C)C(CC[C@]3(C)C2CC=C2C4[C@H](C(C)C)CC[C@]4(C)[C@@H](OC(C)=O)C[C@]23C)C1(C)C,>10 µM
COc1c(N2C[C@@H]3CCCN[C@@H]3C2)ccc2c(=O)c(C(=O)O)cn(C3CC3)c12,183 µg/mL
CCCCSc1n[nH]c(-c2cccc([N+](=O)[O-])c2C)n1,27.3 µg/mL
CC[n+]1c(-c2ccccc2)c2cc(-n3cccc3)ccc2c2ccc(N)cc21,<10 µM
Cc1nc(C(C)C)c2[nH]c(=S)[nH]c(=O)n12,>400 µg/mL
NS(=O)(=O)c1cccc(-c2cc(=O)n(O)c3ncccc23)c1,<100 µM
CSc1noc(-c2ccc(OCCCOc3ccccc3)cc2)c1C#N,20 µM
COc1ccc(-c2cc(=O)c3c(O)c(OC)c(OC)cc3o2)cc1OC,147 µg/mL
O=C(Nc1ccc(C(=O)N2CCc3cc(C(=O)N4CCOCC4)sc3-c3ccccc32)cc1)c1ccccc1-c1ccccc1,>100 µM
Nc1ncnc2c1CCN2[C@@H]1O[C@H](CSCCC(N)C(=O)O)C[C@H]1O,200 µg/mL
CCC(Sc1ncnc2c1cnn2COCC(O)CO)C(N)=O,>400 µg/mL
CCOC(=O)c1ccc(OCCCCC(=O)c2ccc(C)cc2)cc1,>293 µM
CC(=O)O[C@H]1C[C@]2(C)C(=CCC3[C@@]4(C)CC[C@@H](OC(C)=O)C(C)(C)C4CC[C@]32C)C2[C@H](C(C)C)CC[C@@]21C,>10 µM
COc1ccc(CC2COc3cc(OC)cc(OC)c3C2=O)cc1,25 µM
CS(=O)(=O)c1ccc(Cc2ccc(Cl)c(Cl)c2)nc1,>10 µg/mL
O=C1/C(=C/c2ccc(Cl)cc2)COc2cc(Cl)cc(Cl)c21,0.39 µM
COc1c(N2CCNC(C)C2)ccc2c(=O)c(C(=O)O)cn(C3CC3)c12,301 µg/mL
COc1ccc(C(=O)CCCCOc2c(Cl)cc(C3=NCCO3)cc2Cl)cc1,>237 µM
Nc1nc(OC[C@H]2CC[C@@H](COCc3ccccc3)O2)c2[nH]cnc2n1,203 µM
CCOC(=O)c1ccc(OCCCCC(=O)c2ccc(C)c(Cl)c2)cc1,>267 µM
O=C1/C(=C/c2ccccc2)COc2ccccc21,6.25 µM
C#CCSc1n[nH]c(-c2ccc([N+](=O)[O-])c(C)c2)n1,20.22 µg/mL
Clc1ccc(C2CCc3ccccc3O2)c(Cl)c1,25 µM
CC(=O)NC(CCSC[C@H]1O[C@@H](n2ccc3c(N)ncnc32)[C@H](O)[C@@H]1O)C(=O)O,>400 µg/mL
C=CCc1nc(C)n2c(=O)[nH]cnc12,>400 µg/mL
CCC1COC(c2ccc(OCCCCCCC(=O)c3ccc(C)s3)cc2)=N1,15 µM
CSc1noc(-c2ccc(OCCOc3ccc([N+](=O)[O-])cc3)cc2)c1C#N,10 µM
C#CCSc1n[nH]c(-c2ccco2)n1,56 µg/mL
COc1ccc(-c2oc3cc(OC)cc(O)c3c(=O)c2OC)cc1,107 µg/mL
CCCOC(=O)C(CCSC[C@H]1O[C@@H](n2ccc3c(N)ncnc32)[C@H](O)[C@@H]1O)NC(C)=O,100 µg/mL
CCOC(=O)c1c(O)c2cc(Oc3ccc(N(CC)CC)cc3)cnc2n(O)c1=O,<100 µM
C=CCc1ncn2c(=O)[nH]c(NC(C)=O)nc12,>400 µg/mL
CC1(C)[C@@H](CO)CC[C@@]1(C)Cn1nnc2c(N)ncnc21,>400 µg/mL
CCOC(=O)c1c(N)c2cc(-c3ccccc3)cnc2n(O)c1=O,<100 µM
COC1=C(OC)C(O)(CCn2cnc3c(N)ncnc32)OC1=O,157 µM
CS(=O)(=O)c1ccc(Cc2ccc(S(C)(=O)=O)cn2)cc1,>10 µg/mL
CCOC(=O)c1ccc(OCCCCC(=O)c2ccc(C)s2)cc1,>267 µM
O=c1ccn([C@@H]2C[C@H](CO)C[C@H]2CO)c(=O)[nH]1,>200 µg/mL
COc1ccc(NC(=O)c2c(O)c3cccnc3n(O)c2=O)cn1,<100 µM
Cc1ccc(C(=O)CCCCCCOc2ccc(C3=NC(C)CO3)cc2)s1,16 µM
CC1(C)[C@@H](CO)CC[C@@]1(C)Cn1cnc2c(Cl)ncnc21,>400 µg/mL
CC(=O)Nc1nc2c(CC(O)CO)nc(C)n2c(=O)[nH]1,>400 µg/mL
CC(Sc1ncnc2c1cnn2CCCCO)C(N)=O,>400 µg/mL
Cc1ccc(C(=O)CCCCOc2ccc(C3=NCCO3)cc2)cc1C,>285 µM
C[C@H]1NCc2cc(-c3ccc4c(=O)c(C(=O)O)cn(C5CC5)c4c3OC(F)F)ccc21,>200 µg/mL
Nc1ncnc2c1ncn2C[C@H](O)CO,>400 µg/mL
CCCCCCCCCCCCCCCC(=O)OC[C@H]1OC(OC(=O)NS(=O)(=O)OC[C@H]2O[C@@H](n3ccc(=O)[nH]c3=O)[C@@H]3OC(C)(C)O[C@@H]32)[C@H](OC(=O)CCCCCCCCCCCCCCC)[C@@H](OC(=O)CCCCCCCCCCCCCCC)[C@@H]1OC(=O)CCCCCCCCCCCCCCC,220 µM
COCC(=O)NC(CCSC[C@H]1O[C@@H](n2ccc3c(N)ncnc32)[C@H](O)[C@@H]1O)C(=O)OC(C)C,400 µg/mL
Nc1nc(Cl)cc(OC[C@H]2CC[C@@H](COCc3ccccc3)O2)n1,179 µM
CS(=O)(=O)c1ccc(Cc2ccc(Cl)cc2)nc1,>10 µg/mL
CC(=O)NC(CCSC[C@H]1O[C@@H](n2ccc3c(N)ncnc32)[C@H](O)[C@@H]1O)C(=O)OC(C)C,200 µg/mL
CCOC(=O)c1ccc(OCCCCC(=O)c2ccccc2)cc1,>306 µM
Cc1ccc(C(=O)CCCCOc2ccc(C3=NCC(C)O3)cc2Cl)s1,>265 µM
Cc1ccc(C(=O)CCCCOc2ccc(C3=NCCO3)cc2)s1,146 µM
OC[C@H]1CC(n2cnc3c(NC4CC4)ncnc32)C[C@@H]1CO,>200 µg/mL
CCOC(=O)c1c(O)c2cccnc2n(O)c1=O,<100 µM
O=C1c2ccccc2OCC1Cc1ccccc1,6.25 µM
CCOC(=O)c1ccc(OCCC2CCN(c3ccc(C)nn3)CC2)cc1,150 µM
Cc1ccc(C(=O)CCCCOc2ccc(C3=NC(C)(C)CO3)cc2)s1,17 µM
C#CCSc1n[nH]c(-c2ccc(Cl)cc2C)n1,9.35 µg/mL
CC1(C)[C@@H](CO)CC[C@@]1(C)Cn1cc(Br)c(=O)[nH]c1=O,>400 µg/mL

For reference, 10 entries again:

| compound | value |
|---|---|
| COCC(=O)NC(CCSC[C@H]1O[C@@H](n2ccc3c(N)ncnc32)[C@H](O)[C@@H]1O)C(=O)OC(C)C | 400 µg/mL |
| CCOC(=O)c1c(O)c2cccnc2n(O)c1=O | <100 µM |
| NS(=O)(=O)c1cccc(-c2cc(=O)n(O)c3ncccc23)c1 | <100 µM |
| C=CCc1ncn2c(=O)[nH]c(NC(C)=O)nc12 | >400 µg/mL |
| O=c1cc(NCc2cccc(CN3CCOCC3)c2)c2cccnc2n1O | 0.13 µM |
| COc1c(N2C[C@@H]3CCCN[C@@H]3C2)ccc2c(=O)c(C(=O)O)cn(C3CC3)c12 | 183 µg/mL |
| CCOC(=O)c1ccc(OCCCCC(=O)c2ccc(C)s2)cc1 | >267 µM |
| CCOC(=O)c1ccc(OCCOc2ccc(-c3onc(SC)c3C#N)cc2)cc1 | 10 µM |
| CC1(C)O[C@@H]2[C@H](O1)[C@@H](COS(=O)(=O)NC(=O)OC1O[C@H](CO)[C@@H](O)[C@H](O)[C@H]1O)O[C@H]2n1ccc(=O)[nH]c1=O | >220 µM |
| C#CCSc1n[nH]c(-c2ccco2)n1 | 56 µg/mL |